## Share of PSTVd loop 15 variants by leaf site

From the data files of Wu et al. 2024, doi:10.1371/journal.ppat.1012142.

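Three N. benthamiana plants were inoculated with the whole mutant pool. Progeny were sequenced from the inoculated region (day 5), the margin of the inoculated leaf (day 10) and systemic leaves (day 12).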

PSTVd intermediate strain, loop 15: wild type GGAAACCGCUACUAC, pool pattern GGAAACCGNNNNNNC; upper and lower strand joined, each 5' to 3', the first 7 letters being the upper strand, closing pairs included.

Numbers give reads per thousand; 0 = not seen among the reads, higher = more abundant. Each value is the mean of three plants. "Pool" is the share in the plasmid pool used as inoculum, on the same scale. The inoculated region was read from the minus strand, the other sites from the plus strand. IR is the inoculated region, LM the leaf margin, Sys the systemic leaves. Sequences that differ at fixed positions probably stem from PCR or sequencing errors, and defective variants can be carried along by functional ones. Samples held 43,870 to 66,106 reads, so the smallest values rest on one or two reads. For reference, wild type rose from 33.9 per thousand in the pool to 202, 200, 159 (inoculated region), 724, 746, 710 (leaf margin) and 856, 883, 880 (systemic leaves).

- GGAAACCGAGAUUCC (pool 0.208) = IR 0.0805; LM 0.0195; Sys 0
- GGAAACCGGGAACCC (pool 0.272) = IR 0.0894; LM 0.00742; Sys 0
- GGAAACCGACCUCAC (pool 0.192) = IR 0.151; LM 0.00539; Sys 0
- GGAAACCGGGUUCUC (pool 0.208) = IR 0.123; LM 0.0134; Sys 0
- GGAAACCGGCCUUGC (pool 0.256) = IR 0.0794; LM 0.0121; Sys 0
- GGAAACCGCCCGGGC (pool 0.224) = IR 0.0882; LM 0.00668; Sys 0
- GGAAACCGACCAAAC (pool 0.256) = IR 0.114; LM 0.0128; Sys 0.00537
- GGAAACCGACCGCCC (pool 0.304) = IR 0.0678; LM 0.00668; Sys 0
- GGAAACCGGCUGACC (pool 0.192) = IR 0.0903; LM 0.00668; Sys 0
- GGAAACCGGCUGUCC (pool 0.208) = IR 0.0924; LM 0.688; Sys 0.00537
- GGAAACCGAUACGUC (pool 0.144) = IR 0.0930; LM 0.0254; Sys 0
- GGAAACCGGUCUGCC (pool 0.336) = IR 0.101; LM 0.0121; Sys 0.0107
- GGAAACCGCAGAGGC (pool 0.224) = IR 0.128; LM 0; Sys 0.00537
- GGAAACCGUGCUUGC (pool 0.144) = IR 0.120; LM 0.00668; Sys 0
- GGAAACCGUUCGGGC (pool 0.256) = IR 0.0877; LM 0.0128; Sys 0
- GGAAACCGUCGUAUC (pool 0.112) = IR 0.0975; LM 0.0187; Sys 0
- GGAAACCGCCGGGCC (pool 0.256) = IR 0.224; LM 0.00668; Sys 0
- GGAAACCGCACUGUC (pool 0.128) = IR 0.191; LM 0.0208; Sys 0
- GGAAACCGAUUAAUC (pool 0.144) = IR 0.0723; LM 0.0141; Sys 0
- GGAAACCGUGAGGGC (pool 0.208) = IR 0.287; LM 0.130; Sys 0.00537
- GGAAACCGCUACCUC (pool 0.192) = IR 0.286; LM 0.0949; Sys 0.0215
- GGAAACCGGCUGUUC (pool 0.160) = IR 0.113; LM 0.00742; Sys 0
- GGAAACCGCGCCCCC (pool 0.224) = IR 0.109; LM 0.00742; Sys 0
- GGAAACCGAUGGCUC (pool 0.192) = IR 0.0850; LM 0.00539; Sys 0
- GGAAACCGCCACGAC (pool 0.208) = IR 0.0759; LM 0.0215; Sys 0.00537

Extract of 3 entries:

sequence,pool,IR,LM,Sys
GGAAACCGUGCUUGC,0.144,0.120,0.00668,0
GGAAACCGGCUGUCC,0.208,0.0924,0.688,0.00537
GGAAACCGCGCCCCC,0.224,0.109,0.00742,0